{"sequences": {"note": "Chains of the proteins cited; added tags and fusions are not shown. Residues count along the entry.", "UniProt P22303, 32-614": "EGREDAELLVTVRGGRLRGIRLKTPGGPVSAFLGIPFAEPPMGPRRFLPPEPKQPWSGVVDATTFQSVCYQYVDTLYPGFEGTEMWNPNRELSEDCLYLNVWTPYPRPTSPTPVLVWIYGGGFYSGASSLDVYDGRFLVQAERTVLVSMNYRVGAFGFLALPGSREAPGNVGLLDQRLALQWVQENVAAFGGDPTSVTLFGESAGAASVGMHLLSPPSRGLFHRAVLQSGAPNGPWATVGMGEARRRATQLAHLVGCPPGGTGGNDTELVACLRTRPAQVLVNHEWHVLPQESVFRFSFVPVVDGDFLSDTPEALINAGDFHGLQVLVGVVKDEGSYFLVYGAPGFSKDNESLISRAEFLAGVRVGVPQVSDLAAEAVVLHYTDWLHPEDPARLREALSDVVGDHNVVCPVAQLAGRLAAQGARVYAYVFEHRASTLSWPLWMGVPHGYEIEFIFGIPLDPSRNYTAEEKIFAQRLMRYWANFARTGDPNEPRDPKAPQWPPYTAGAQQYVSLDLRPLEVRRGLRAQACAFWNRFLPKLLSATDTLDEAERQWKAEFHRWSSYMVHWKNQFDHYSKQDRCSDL"}, "source": "patent US6987211B1", "about": "“Transgenic non-human mammals producing a cholinesterase in their milk” (dated 2006)", "key": {"[1]": {"target": "human recombinant AChE (Homo sapiens, UniProt P22303)", "assay": "In vivo inhibition of AChE by Paraoxon in CMVAChE-injected Xenopus embryos"}, "[2]": {"tested_on": "embryonic Xenopus AChE", "assay": "In vivo inhibition of AChE by Paraoxon in uninjected Xenopus embryos", "conditions": "in vivo (embryos, 30 minutes) versus in vitro (homogenates)"}}, "data": [{"smiles": "CCOP(=O)(OCC)Oc1ccc([N+](=O)[O-])cc1", "values": [{"measurement": "higher sensitivity of human AChE than embryonic Xenopus AChE", "setting": "[1]; human versus Xenopus enzyme", "value": 100, "unit": "fold"}, {"measurement": "decrease in sensitivity under in vivo conditions", "setting": "[1]; in vivo (embryos, 30 minutes) versus in vitro (homogenates)", "value": "5-10 fold"}, {"measurement": "decrease in sensitivity under in vivo conditions", "setting": "[2]", "value": "5-10 fold"}]}]}
